Experimental data reported in patent publication US20240026278A1, “BLOOD CELL LYSING AGENT FOR ISOLATING BACTERIA FROM BLOOD CULTURE” (Becton, Dickinson and Company, priority 2020, published 2024).
“Also recorded” adds a separate entry of the source.

System: Staphylococcus epidermidis
Assay: MALDI scores for Staphylococcus epidermidis isolated from positive blood cultures using different lysing agents
Settings: S. epidermidis isolated from positive blood cultures, lysing agent at 0.52% (w/w)

Nonoxynol-9 [SDA]
MALDI identification: correct identification
MALDI score (acceptance score >= 1.8 Sepsityper database, 2.0 standard database): high MALDI scores; also recorded: higher MALDI score
